In the supplement of paper PMC3578754:
Fold change is the IC50 on the isolate divided by the IC50 on a reference virus; 1 = unchanged, higher = more resistant. Changes are given against the subtype B consensus. No active / inactive call. The values were gathered from many studies (numbered anew) with different assays, which the source does not name. Most viruses are clinical isolates; some are laboratory strains or clones with known resistance changes. Isolates with mixed residues are left out; stretches that were not sequenced show no change. Round top values that many isolates share are read here as limits; other very high values and 0.1 may be limits too. For some assays here: The protease changes I3V and N37S, insertions and deletions cannot be read from the source.

Assays:
tipranavir = compound: CCC[C@@]1(CCc2ccccc2)CC(O)=C([C@H](CC)c2cccc(NS(=O)(=O)c3ccc(C(F)(F)F)cn3)c2)C(=O)O1 [tipranavir]; assay: fold change of IC50 against reference virus; higher = more resistant; Cell-culture drug susceptibility tests of virus bearing the protease of each isolate, gathered from many studies.
delavirdine = compound: CC(C)Nc1cccnc1N1CCN(C(=O)c2cc3cc(NS(C)(=O)=O)ccc3[nH]2)CC1 [delavirdine]; assay: fold change of IC50 against reference virus; higher = more resistant
Description: (§1)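 Cell-culture drug susceptibility tests of virus bearing the reverse transcriptase of each isolate, gathered from many studies.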

nevirapine = compound: Cc1ccnc2c1NC(=O)c1cccnc1N2C1CC1 [nevirapine]; assay: as above
Description: as §1

stavudine = compound: Cc1cn([C@H]2C=C[C@@H](CO)O2)c(=O)[nH]c1=O [stavudine]; assay: as above
Description: as §1

zidovudine = compound: Cc1cn([C@H]2C[C@H](N=[N+]=[N-])[C@@H](CO)O2)c(=O)[nH]c1=O [zidovudine]; assay: as above
Description: as §1

zalcitabine = compound: Nc1ccn([C@H]2CC[C@@H](CO)O2)c(=O)n1 [zalcitabine]; assay: as above
Description: as §1

abacavir = compound: Nc1nc(NC2CC2)c2ncn([C@H]3C=C[C@@H](CO)C3)c2n1 [abacavir]; assay: as above
Description: as §1

efavirenz = compound: O=C1Nc2ccc(Cl)cc2[C@@](C#CC2CC2)(C(F)(F)F)O1 [efavirenz]; assay: as above
Description: as §1

didanosine = compound: O=c1[nH]cnc2c1ncn2[C@H]1CC[C@@H](CO)O1 [didanosine]; assay: as above
Description: as §1

Test System | fold change of IC50 against reference virus (tipranavir) | fold change of IC50 against reference virus (delavirdine) | fold change of IC50 against reference virus (nevirapine) | fold change of IC50 against reference virus (stavudine) | fold change of IC50 against reference virus (zidovudine) | fold change of IC50 against reference virus (zalcitabine) | fold change of IC50 against reference virus (abacavir) | fold change of IC50 against reference virus (efavirenz) | fold change of IC50 against reference virus (didanosine)
HIV-1 isolate 1213 (protease changes: L10F E35D L63P A71V T74P I84V L90M I93L, study 124) | 1.5 | – | – | – | – | – | – | – | –
HIV-1 isolate 1466 (protease changes: I13V K14R L19P K20I E35D M36I R41K H69K V82I L89M, study 87) | 1.3 | – | – | – | – | – | – | – | –
HIV-1 isolate 1093 (protease changes: T12V E35D M36I R41K R57K Q61N, study 87) | 1.6 | – | – | – | – | – | – | – | –
HIV-1 isolate 1542 (protease changes: I13V V32I L33F K45I R57G I84V, study 76) | 7 | – | – | – | – | – | – | – | –
HIV-1 isolate 1049 (protease changes: I15V G17D K20R E35D M36I R41K R57K Q61N E65D I72T, study 87) | 2.1 | – | – | – | – | – | – | – | –
HIV-1 isolate 145 (protease changes: I15V M36I R41K L63P H69K L89M I93L, study 87) | 1.1 | – | – | – | – | – | – | – | –
HIV-1 isolate 472 (protease changes: none, study 122) | 1 | – | – | – | – | – | – | – | –
HIV-1 isolate 1072 (protease changes: I13V V32I L33F M36I K45I R57G A71V V82L I84V, study 76) | 28 | – | – | – | – | – | – | – | –
HIV-1 isolate 1240 (protease changes: L33F R57G I84V, study 76) | 1.7 | – | – | – | – | – | – | – | –
HIV-1 isolate 959 (protease changes: L10I I13V K14R I15V K20I E35Q M36I R41K R57K C67E H69K V82I L89M, study 87) | 1.3 | – | – | – | – | – | – | – | –
HIV-1 isolate 629 (protease changes: I13V K14R K20I E35D M36I R41K H69K V82I L89M, study 87) | 0.7 | – | – | – | – | – | – | – | –
HIV-1 isolate 278 (protease changes: I13V K14R K20I E35D M36I R41K H69K V82I L89M, study 87) | 0.8 | – | – | – | – | – | – | – | –
HIV-1 isolate 643 (protease changes: I13V K14R K20I M36I R41K I64M H69K K70R V82I L89M, study 87) | 0.6 | – | – | – | – | – | – | – | –
HIV-1 isolate 1571 (protease changes: M36I R41K I93L, study 87) | 0.6 | – | – | – | – | – | – | – | –
HIV-1 isolate 1112 (protease changes: I13A K14R K20I M36I N37D R41K H69K L89I, study 87) | 1 | – | – | – | – | – | – | – | –
HIV-1 isolate 1536 (protease changes: T12S L19I M36I R41K L63V H69K T74S V77I L89M I93L, study 87) | 0.8 | – | – | – | – | – | – | – | –
HIV-1 isolate 280 (protease changes: L10I I15V G17D L19W K20I M36I M46I I47V I54V I62V L63P A71V I72N G73T I84V I85V L90M I93L, study 124) | 11 | – | – | – | – | – | – | – | –
HIV-1 isolate 112 (reverse transcriptase changes: T39A M41L K43A E44D D67N T69D V118I K122E I142V M184V Q207E L210W R211K T215Y I293V E297A, study 112) | – | 0.3 | 0.5 | 3.3 | 35.4 | 3.1 | 9.6 | 0.3 | 2.1
HIV-1 isolate 450 (reverse transcriptase changes: T39A M41L E44D D67N T69D R83K K103N V118I K122E I135T E169D M184V T200E E203K Q207E H208Y L210W R211K T215Y A272P V276T, study 109) | – | 6.8 | 44 | 4.6 | 181 | 2.9 | 9.5 | 13 | 2.1
HIV-1 isolate 340 (reverse transcriptase changes: R83K K173R G196E R211S P294Q E297K K311R, study 40) | – | 1 | 2 | 2 | 1 | 1 | 1 | 1 | 2
HIV-1 isolate 1190 (reverse transcriptase changes: D67N K102R V106A D123E K166R V179I M184V T200A I202V Q207E F227L, study 40) | – | 4 | 123 | 2 | 1 | 7 | 10 | 14 | 3
HIV-1 isolate 523 (reverse transcriptase changes: A98S I135T T200A R211K V245M E248D K277R I293V E297A K311R D324G I329L A376S K390R, study 54) | – | 3.8 | 3.5 | 1.2 | 1.7 | 1.1 | 0.8 | 1.8 | 1.1
HIV-1 isolate 1080 (reverse transcriptase changes: M41L D123E I135T I142T D177E V179I M184V G196E L210W T215Y L228R, study 112) | – | 0.4 | 0.6 | 1.7 | 14.1 | 2.6 | 8.5 | 0.4 | 1.7
HIV-1 isolate 1428 (reverse transcriptase changes: V35T V60I I135V I142V M184V R211K V245E A272P K277R L283I I293V E297A, study 40) | – | 1 | 1 | 1 | 1 | 1 | 2 | 1 | 1
HIV-1 isolate 1116 (reverse transcriptase changes: I135T G196E V245E A272P K277R I293V P294Q K311R G335E R356K M357R V365I T369A K374R T386I K390R A400T, study 54) | – | 3.3 | 2.4 | 1.2 | 1 | 0.5 | 0.8 | 1.8 | 1.2
HIV-1 isolate 863 (reverse transcriptase changes: K70R D177N I178L Q197E R211K V245T D250E T286A I293V, study 119) | – | 3.5 | 3.4 | 1.3 | 5.3 | 0.9 | 1.1 | 1.5 | 1.2
